## Potato spindle tuber viroid, loop 15: variant abundance in plants

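Three N. benthamiana plants were inoculated with the whole mutant pool. Samples came from the inoculated region at 5 days, the leaf margin at 10 and upper systemic leaves at 12.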

Region: loop 15 of PSTVd (intermediate strain), upper and lower strand joined, each 5' to 3', the first 7 letters being the upper strand, closing pairs included. Wild type: GGAAACCGCUACUAC. Varied positions (N): GGAAACCGNNNNNNC.

Values are reads per thousand in the sample; higher means more abundant, 0 means not found.
Each value is the mean of three plants.
"Pool" is the share in the plasmid pool used as inoculum, on the same scale.
The inoculated region was read from the minus strand, the other sites from the plus strand.
IR is the inoculated region, LM the leaf margin, Sys the systemic leaves.

* GGAAACCGUUCUCAC (pool 0.112) -> IR 0.357; LM 0.150; Sys 0.0771
* GGAAACCGCUGGUCC (pool 0.224) -> IR 0.119; LM 0.0208; Sys 0
* GGAAACCGACCCUCC (pool 0.176) -> IR 0.0585; LM 0.0148; Sys 0
* GGAAACCGACACAUC (pool 0.240) -> IR 0.0875; LM 0.0121; Sys 0.0107
* GGAAACCGGGCAACC (pool 0.256) -> IR 0.0786; LM 0.00539; Sys 0
* GGAAACCGGGGCCGC (pool 0.192) -> IR 0.0893; LM 0.0162; Sys 0
* GGAAACCGGUUUAUC (pool 0.160) -> IR 0.0649; LM 0.0121; Sys 0.00537
* GGAAACCGGUACCUC (pool 0.336) -> IR 0.115; LM 0.0254; Sys 0
* GGAAACCGGAUUUUC (pool 0.304) -> IR 0.0949; LM 0.00668; Sys 0
* GGAAACCGGCGACAC (pool 0.192) -> IR 0.117; LM 0.0141; Sys 0.00760
* GGAAACCGUCCAGAC (pool 0.208) -> IR 0.104; LM 0.0128; Sys 0
* GGAAACCGAGACUAC (pool 0.288) -> IR 0.321; LM 0.118; Sys 0.0746
* GGAAACCGUCUGCGC (pool 0.272) -> IR 0.0983; LM 0.00742; Sys 0
* GGAAACCGGCAAGCC (pool 0.160) -> IR 0.0912; LM 0.00668; Sys 0.00537
* GGAAACCGCCCCCCC (pool 0.224) -> IR 0.0742; LM 0.0121; Sys 0
* GGAAACCGAAAUUUC (pool 0.224) -> IR 0.490; LM 0.130; Sys 0.0613
* GGAAACCGAUGGAUC (pool 0.256) -> IR 0.0549; LM 0; Sys 0
* GGAAACCGGUUACGC (pool 0.240) -> IR 0.121; LM 0.00668; Sys 0
* GGAAACCGCCUCCGC (pool 0.208) -> IR 0.140; LM 0.00668; Sys 0
* GGAAACCGCUACCCC (pool 0.352) -> IR 0.0641; LM 0.00668; Sys 0.0161
* GGAAACCGGUAACCC (pool 0.160) -> IR 0.0942; LM 0.00539; Sys 0
* GGAAACCGAUUCCUC (pool 0.0640) -> IR 0.157; LM 0; Sys 0
* GGAAACCGGUCCAGC (pool 0.176) -> IR 0.101; LM 0.0121; Sys 0.00537
* GGAAACCGAAGCCCC (pool 0.128) -> IR 0.111; LM 0.00742; Sys 0
* GGAAACCGAGCCUAC (pool 0.176) -> IR 0.365; LM 0.174; Sys 0.0215

2 of these entries, quoted again:

{"sequence": "GGAAACCGAGCCUAC", "pool": "0.176", "IR": 0.365, "LM": 0.174, "Sys": 0.0215}
{"sequence": "GGAAACCGUCCAGAC", "pool": "0.208", "IR": 0.104, "LM": 0.0128, "Sys": 0}

Sequences that differ at fixed positions probably stem from PCR or sequencing errors, and defective variants can be carried along by functional ones.
With 43,870-66,106 reads a sample, very low values are single reads.
Wild type was 33.9 per thousand in the pool and the most common sequence in every sample (inoculated region 202, 200, 159; leaf margin 724, 746, 710; systemic leaves 856, 883, 880).

Source: Wu et al. 2024 (doi:10.1371/journal.ppat.1012142), supplementary data.